Compound potency records, mixed from different reports. Data source: NIAID ChemDB in PubChem.

All rows: tests in culture; agent: Aspergillus niger; read-out: zone

Rows are shuffled and stem from different studies.

SMILES	strain or isolate	read by	tested at	value
NC(=S)c1ccc(OC(=O)CN2CCCC2)cc1	ATCC 16404	agar diffusion / agar	100 µg/mL	24 mm
Cc1ccc(NCc2cc3ccccc3nc2Cl)cc1	MTCC 281	agar diffusion	200 µg/mL	10.9 mm
Clc1ccc(COC(Cn2ccnc2)c2ccc(Cl)cc2Cl)c(Cl)c1	-	agar diffusion	30 µg/mL	24 mm
CSC1=NC(c2cccc3cc4ccccc4cc23)C(C#N)=C(N)N1	MTCC 282	agar diffusion	25 µg/mL	14 mm
CCOc1ccc2nc(NS(=O)(=O)C3C(=O)ONN3c3ccc(C)cc3)sc2c1	MTCC 282	agar diffusion	250 µg/mL	23 mm
CSC1=NC(c2ccccc2O)C(C#N)=C(N)N1	MTCC 282	agar diffusion	100 µg/mL	16 mm
NC(=S)c1ccc(OC(=O)CNc2nncs2)cc1	ATCC 16404	agar diffusion / agar	100 µg/mL	24 mm
Cc1c(Cc2ccc(Cl)cc2)nc(SCCN2CCOCC2)[nH]c1=O	NRRL 599	agar diffusion / agar	200 µg/disc	<10 mm
CC(=O)N1N=C(c2sc3ccccc3c2Cl)OC1c1ccccc1	-	-	5 µg/disc	10 mm
COc1cc2c(cc1-c1cc(-c3ccc(C#N)cc3)nc(N)n1)CCC(C)(C)O2	-	agar diffusion	100 µg/mL	17 mm
N#Cc1ccc(Nc2nc(Oc3cccc4cccnc34)nc(N3CCN(c4ccccn4)CC3)n2)cc1C(F)(F)F	MTCC 282	agar diffusion / agar	100 µg/disc	24 mm
C#CCn1c(C(F)(F)F)nc2ccc([N+](=O)[O-])cc21	MTCC 1344	-	500 µg/mL	650 mm
Cc1c(Cc2ccc(Cl)cc2)nc(SCCN2CCCC2)[nH]c1=O	NRRL 599	agar diffusion / agar	200 µg/disc	<10 mm
CCOC(=O)Cn1c(C(F)(F)C(F)(F)F)nc2ccc([N+](=O)[O-])cc21	MTCC 1344	-	500 µg/mL	800 mm
COc1ccc(-c2nc3ccccc3c(=O)n2-c2ccc(NS(=O)(=O)C3C(=O)ONN3c3ccc(C)cc3)cc2)cc1[N+](=O)[O-]	MTCC 282	agar diffusion	250 µg/mL	22 mm
Clc1ccc(NCc2cc3ccccc3nc2Cl)cc1	MTCC 281	agar diffusion	200 µg/mL	15.86 mm
COc1cc2c(cc1-c1cc(-c3ccc(C)cc3)nc(N)n1)CCC(C)(C)O2	-	agar diffusion	100 µg/mL	16 mm
CCc1c(Cc2ccc(Cl)cc2)nc(SCCN2C(=O)c3ccccc3C2=O)[nH]c1=O	NRRL 599	agar diffusion / agar	200 µg/disc	<10 mm
CCN1CCN(c2nc(Nc3ccc(C#N)c(C(F)(F)F)c3)nc(Oc3cccc4cccnc34)n2)CC1	MTCC 282	agar diffusion / agar	100 µg/disc	21 mm
CC(=O)N1N=C(c2sc3ccccc3c2Cl)OC1c1ccccc1Cl	-	-	5 µg/disc	11 mm
CSC1=NC(c2ccc(Cl)cc2)C(C#N)=C(N)N1	MTCC 282	agar diffusion	25 µg/mL	14 mm
COc1ccc(-c2nc3ccccc3c(=O)n2-c2ccc(NS(=O)(=O)C3C(=O)ONN3c3ccc(C)cc3)cc2)cc1	MTCC 282	agar diffusion	250 µg/mL	20 mm
CCc1c(Cc2ccc(C)cc2)nc(SCCN2CCOCC2)[nH]c1=O	NRRL 599	agar diffusion / agar	200 µg/disc	<10 mm
CC(=O)c1cccc(-c2nnc(-c3sc4ccccc4c3Cl)o2)c1	-	-	5 µg/disc	11 mm
Clc1cccc(NCc2cc3ccccc3nc2Cl)c1	MTCC 281	agar diffusion	200 µg/mL	13.4 mm
O=C(CNc1nncs1)Cc1ccc(-c2nc(-c3ccccc3)c(-c3ccccc3)s2)cc1	ATCC 16404	agar diffusion / agar	100 µg/mL	25 mm
CS(=O)(=O)c1nc(N)c(C#N)c(-c2ccccc2Cl)n1	MTCC 282	agar diffusion	50 µg/mL	18 mm
COC1=CC(=O)C[C@@H](C)[C@]12Oc1c(Cl)c(OC)cc(OC)c1C2=O	MTCC 282	agar diffusion	250 µg/mL	28 mm
Clc1c(-c2nnc(-c3ccccc3)o2)sc2ccccc12	-	-	5 µg/disc	11 mm
Cc1n[nH]c(=S)n1N=C/C=C/c1c(-c2ccc(F)cc2)c2ccccc2n1C(C)C	-	-	200 µg/mL	12 mm
COc1cc2c(cc1-c1cc(-c3ccccc3)nc(N)n1)CCC(C)(C)O2	-	agar diffusion	100 µg/mL	13 mm
Cc1c(Cc2ccc(Cl)cc2)nc(SCCCN2C(=O)c3ccccc3C2=O)[nH]c1=O	NRRL 599	agar diffusion / agar	200 µg/disc	18 mm
Cc1cccc(NCc2cc3ccccc3nc2Cl)c1	MTCC 281	agar diffusion	200 µg/mL	9.53 mm
Cc1ccc(S(=O)(=O)CNc2oc3[nH]c(=O)[nH]c(=O)c3c2-c2ccsc2C=O)cc1	-	agar diffusion / agar	100 µg/mL	3 mm
CCn1c(C(F)(F)F)nc2ccc([N+](=O)[O-])cc21	MTCC 1344	-	500 µg/mL	800 mm
CN(Cc1cc2ccccc2nc1Cl)c1ccc(Cl)cc1	MTCC 281	agar diffusion	200 µg/mL	17.08 mm
CCOC(=O)/C(C)=N/Nc1ccccc1	-	agar diffusion	5000 µg/mL	1.85 mm
COc1ccc(C2OC(c3sc4ccccc4c3Cl)=NN2C(C)=O)cc1	-	-	5 µg/disc	9 mm
CC[C@H](/C=C/[C@@H](C)[C@H]1CCC2C3CC=C4CC(O)CC[C@]4(C)C3CC[C@@]21C)C(C)C	ATCC 16404	agar diffusion	500 µg/mL	0 mm
CCOC(=O)Cn1c(C(F)(F)F)nc2cc([N+](=O)[O-])ccc21	MTCC 1344	-	500 µg/mL	550 mm
N#Cc1ccc(Nc2nc(Oc3cccc4cccnc34)nc(N3CCN(c4ccccc4)CC3)n2)cc1C(F)(F)F	MTCC 282	agar diffusion / agar	100 µg/disc	20 mm
CS(=O)(=O)C1=NC(c2cccc3cc4ccccc4cc23)C(C#N)=C(N)N1	MTCC 282	agar diffusion	100 µg/mL	20 mm
CC(=O)N1N=C(c2sc3ccccc3c2Cl)OC1c1cccc([N+](=O)[O-])c1	-	-	5 µg/disc	10 mm
CN1CCN(c2nc(Nc3ccc(C#N)c(C(F)(F)F)c3)nc(Oc3cccc4cccnc34)n2)CC1	MTCC 282	agar diffusion / agar	100 µg/disc	19 mm
CSC1=NC(c2ccccc2)C(C#N)=C(N)N1	MTCC 282	agar diffusion	100 µg/mL	18 mm
Cc1ccc(-c2c(NCS(=O)(=O)c3ccc(C)cc3)oc3[nH]c(=O)[nH]c(=O)c23)cc1	-	agar diffusion / agar	50 µg/mL	0 mm
CC(=O)N1N=C(c2sc3ccccc3c2Cl)OC1c1ccc(Cl)cc1	-	-	5 µg/disc	9 mm
CSC1=NC(/C=C/c2ccccc2)C(C#N)=C(N)N1	MTCC 282	agar diffusion	25 µg/mL	13 mm
Clc1ccccc1-c1nnc(-c2sc3ccccc3c2Cl)o1	-	-	5 µg/disc	11 mm
S=c1nc(-c2cc3ccccc3[nH]2)[nH][nH]1	-	agar diffusion	5000 µg/mL	0 mm
CCc1c(Cc2ccc(Cl)cc2)nc(SCCN2CCOCC2)[nH]c1=O	NRRL 599	agar diffusion / agar	200 µg/disc	<10 mm
O=C(COc1ccc(-c2nc(-c3ccccc3)c(-c3ccccc3)s2)cc1)CN1CCOCC1	ATCC 16404	agar diffusion / agar	100 µg/mL	21 mm
COc1cc2c(cc1-c1cc(-c3ccc(F)cc3)nc(N)n1)CCC(C)(C)O2	-	agar diffusion	100 µg/mL	24 mm
Cc1ccc(S(=O)(=O)CNc2oc3[nH]c(=O)[nH]c(=O)c3c2-c2ccc(F)cc2)cc1	-	agar diffusion / agar	100 µg/mL	5 mm
c1ccc(-c2nc(-c3ccc(Nc4nncs4)cc3)sc2-c2ccccc2)cc1	ATCC 16404	agar diffusion / agar	100 µg/mL	24 mm
CS(=O)(=O)c1nc(N)c(C#N)c(-c2ccc(O)cc2)n1	MTCC 282	agar diffusion	25 µg/mL	18 mm
CCN(CC)CCSc1nc(Cc2ccc(Cl)cc2)c(C)c(=O)[nH]1	NRRL 599	agar diffusion / agar	200 µg/disc	13 mm
C=CC(C)(O)CCC=C(C)C.CC(C)=CCC/C(C)=C/CC/C(C)=C/CC/C=C(/C)CC/C(C)=C\CO	ATCC 16404	agar diffusion	500 µg/mL	15 mm
CC(=O)N[C@@H]1[C@@H](OC(C)=O)[C@H](OC(C)=O)[C@@H](COC(C)=O)O[C@H]1Sc1n[nH]c(-c2cc3ccccc3[nH]2)n1	-	agar diffusion	5000 µg/mL	0 mm
N#Cc1ccc(Nc2nc(Oc3cccc4cccnc34)nc(N3CCCCC3)n2)cc1C(F)(F)F	MTCC 282	agar diffusion / agar	100 µg/disc	23 mm
Cc1cc(=O)oc2c(C=Nc3cccc4cccc(N=Cc5c(O)ccc6c(C)cc(=O)oc56)c34)c(O)ccc12	MTCC 1881	-	500 µg/mL	18 mm
C=CC(C)(O)CCCC(C)CCCC(C)CCCC(C)C	ATCC 16404	agar diffusion	500 µg/mL	10.3 mm

Repeating the final 6 entries:

CCN(CC)CCSc1nc(Cc2ccc(Cl)cc2)c(C)c(=O)[nH]1 ; strain or isolate: NRRL 599 ; read by: agar diffusion / agar ; tested at: 200 µg/disc ; value: 13 mm
C=CC(C)(O)CCC=C(C)C.CC(C)=CCC/C(C)=C/CC/C(C)=C/CC/C=C(/C)CC/C(C)=C\CO ; strain or isolate: ATCC 16404 ; read by: agar diffusion ; tested at: 500 µg/mL ; value: 15 mm
CC(=O)N[C@@H]1[C@@H](OC(C)=O)[C@H](OC(C)=O)[C@@H](COC(C)=O)O[C@H]1Sc1n[nH]c(-c2cc3ccccc3[nH]2)n1 ; read by: agar diffusion ; tested at: 5000 µg/mL ; value: 0 mm
N#Cc1ccc(Nc2nc(Oc3cccc4cccnc34)nc(N3CCCCC3)n2)cc1C(F)(F)F ; strain or isolate: MTCC 282 ; read by: agar diffusion / agar ; tested at: 100 µg/disc ; value: 23 mm
Cc1cc(=O)oc2c(C=Nc3cccc4cccc(N=Cc5c(O)ccc6c(C)cc(=O)oc56)c34)c(O)ccc12 ; strain or isolate: MTCC 1881 ; tested at: 500 µg/mL ; value: 18 mm
C=CC(C)(O)CCCC(C)CCCC(C)CCCC(C)C ; strain or isolate: ATCC 16404 ; read by: agar diffusion ; tested at: 500 µg/mL ; value: 10.3 mm

Zone: diameter of growth inhibition. An empty or dashed field is not shown.